Data set [1] concerns the target T1, NFATc1 (NFAT2) (UniProt O95644).
T1 sequence (looked up, limits assumed): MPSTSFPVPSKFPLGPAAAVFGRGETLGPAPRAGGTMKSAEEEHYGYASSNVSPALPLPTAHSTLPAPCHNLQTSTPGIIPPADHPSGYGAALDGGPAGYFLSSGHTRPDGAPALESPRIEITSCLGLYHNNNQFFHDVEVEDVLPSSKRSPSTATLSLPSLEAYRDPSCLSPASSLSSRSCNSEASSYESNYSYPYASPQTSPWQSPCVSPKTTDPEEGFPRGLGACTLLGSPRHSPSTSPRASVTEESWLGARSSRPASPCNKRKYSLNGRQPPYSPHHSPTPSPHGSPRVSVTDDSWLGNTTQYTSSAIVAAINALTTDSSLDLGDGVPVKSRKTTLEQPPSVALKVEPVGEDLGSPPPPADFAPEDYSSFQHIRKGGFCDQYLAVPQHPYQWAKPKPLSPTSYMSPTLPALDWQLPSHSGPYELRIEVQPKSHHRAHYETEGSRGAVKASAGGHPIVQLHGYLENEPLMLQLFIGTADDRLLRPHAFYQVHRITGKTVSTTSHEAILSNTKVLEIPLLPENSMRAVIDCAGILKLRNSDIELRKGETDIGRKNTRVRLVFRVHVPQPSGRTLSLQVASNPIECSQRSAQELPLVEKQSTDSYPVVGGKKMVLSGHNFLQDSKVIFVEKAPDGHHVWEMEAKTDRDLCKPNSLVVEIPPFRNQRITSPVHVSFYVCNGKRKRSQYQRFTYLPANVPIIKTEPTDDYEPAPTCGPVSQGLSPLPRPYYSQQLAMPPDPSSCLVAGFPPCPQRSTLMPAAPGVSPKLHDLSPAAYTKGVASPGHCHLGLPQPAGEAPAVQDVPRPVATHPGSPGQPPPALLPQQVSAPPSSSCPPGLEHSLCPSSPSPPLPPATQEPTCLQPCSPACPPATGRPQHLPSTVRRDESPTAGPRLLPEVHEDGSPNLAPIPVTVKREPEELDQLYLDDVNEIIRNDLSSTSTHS
Briefly: competition with a labelled probe. Conditions: 10X unlabeled vs Zp-V3 -155/-127 probe; 50 mM KCl, 25 mM Hepes pH 7.6, 10% glycerol, 1 mM EDTA, 0.5 mM spermidine, 0.5 mM PMSF, 1 mM DTT, 2 ug poly(dI/dC), 2 ug BJAB nuclear extract, room temperature; protein in an extract; label: unlabeled.

For data set [2], the target named is T1, NFATc1 (NFAT2). Description: EMSA with antibody block. Conditions: anti-NFATc1 blocks most of the binding, anti-C/EBPa little effect, seen with and without anti-IgM; 50 mM KCl, 25 mM Hepes pH 7.6, 10% glycerol, 1 mM EDTA, 0.5 mM spermidine, 0.5 mM PMSF, 1 mM DTT, 2 ug poly(dI/dC), 2 ug BJAB nuclear extract, room temperature; protein in an extract; label: 32P. For orientation: A gel shift assay detects complexes by their altered migration in electrophoresis.

Data set [3] addresses T1, NFATc1 (NFAT2). Description: EMSA. Conditions: NFAT-alone band; 50 mM KCl, 25 mM Hepes pH 7.6, 10% glycerol, 1 mM EDTA, 0.5 mM spermidine, 0.5 mM PMSF, 1 mM DTT, 2 ug poly(dI/dC), 2 ug BJAB nuclear extract, room temperature; protein in an extract; label: 32P.
For data set [4], the system named is NFATc1 (NFAT2) + cFos (AP1 component). Description: EMSA supershift. Conditions: anti-IgM treated extract only, supershifted by anti-cFos, not anti-XBP1, competed by AP1 and NFAT consensus oligos; 50 mM KCl, 25 mM Hepes pH 7.6, 10% glycerol, 1 mM EDTA, 0.5 mM spermidine, 0.5 mM PMSF, 1 mM DTT, 2 ug poly(dI/dC), 2 ug BJAB nuclear extract, room temperature; protein in an extract; label: 32P.

The exact form of at least one protein or probe is not confirmed. Where cells or extracts were used, other partners may take part. For some of these results: At least one verdict was read from the data and is not stated in words by the source. For some of these results: Tags and fusion partners may be left off the protein sequences shown.

For the sequence “AGAAAGGAGGAAAAACTGTTTCATACAGAAGGCGTT (double strand) [NFAT (1) consensus]”, the binding result in data set [1] was “binds”. As to “CCTCCTCCTCTTTTGGAAACTATGCATGA (double strand) [Zp-V3 -155 to -127]”, the binding result in data set [2] was “binds”. In the case of “CCTCCTCCTCTTTTGGAAACTATGCATGAGCCACAG (double strand) [Zp-V3 -155 to -120]”, the binding result in data set [3] and in data set [4] was “binds” in each case.

For the origin of these results see paper PMC6082571.
